Measurements reported in PubChem BioAssay AID504761 (Drosophila RNAi Screening Center, 2011)
In all, the deposit lists about 22,000 reagents; this is an unselected part of those that have a named target and a result. In the full data, 116 (0.52%) were called active. 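Calls depend on retest data that are not deposited; infection was ranked per plate without normalising between plates; the unit of the infection score is not given.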 Raw values vary from plate to plate and are shown uncorrected. A number with no mark means an inactive call. A plus sign joins genes that one reagent is predicted to hit. No sequences are given here. The record does not give: the amount of reagent, the time to read-out.

- Test: 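Fly genes whose silencing reduces dengue virus type 2 infection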 (primary screen)
- Cells: D.Mel-2 cells from Drosophila
- Knock-down reagent: long dsRNA against Drosophila genes
- Treatment: infection with dengue virus type 2; dose and infection time not stated
- Read-out: 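Cells stained for dengue envelope protein and imaged; percent of infected cells per well on duplicate plates, ranked by infection, with stained nuclei counted for cell number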
- Scale: infection score: higher = more virus-infected cells; cell count: higher = more cells in the well
- Hit rule: 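Low infection ranks in the two replicates (chance level up to 0.065) followed by a retest with a 1.5-fold or larger significant decrease, p below 0.05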
- Calls: active = confirmed: knock-down lowers infection; inactive = not picked or not confirmed

gene	DRSC id	infection score, replicate 1	infection score, replicate 2	cell count, replicate 1	cell count, replicate 2
CG6753	DRSC16108	1.65	28.3	6260	4326
CG6753	DRSC28449	12.3	7.75	3269	3316
pan	DRSC17176	2.67	3.17	6356	6340
pan	DRSC22582	16.7	4.89	6057	1146
pan	DRSC29251	8.82	6.92	5374	5538
CG9519	DRSC20195	3.47	3.89	6401	6400
CG9519	DRSC28137	28	4.89	5664	6484
Prx1	DRSC10741	1.44	6.37	6735	6417
Prx1	DRSC24401	4.74	1.12	6097	6156
DEF8	DRSC09840	9.85	25	5655	5550
CG42323	DRSC19629	34	31.4	5300	3065
CG42323	DRSC21397	6.74	5.51	6109	6411
Sk1	DRSC19774	5.89	3.45	6489	6792
Lsm11	DRSC06238	6.25	9.48	6237	7068
Ada1-1 + Ada1-2	DRSC01220	5.99	0.63	6308	6521
Ada1-1 + Ada1-2	DRSC01222	3.04	0.01	6176	6761
Ada1-1 + Ada1-2	DRSC28646	40.8	18.8	5180	5195
CG8192	DRSC24995	15.1	21.4	6390	5990
Obp28a	DRSC03394	4.25	4.63	6066	6544
Obp28a	DRSC25374	1.4	2.2	6505	6091
Acn	DRSC02062	18.6	2.34	5569	5461
Acn	DRSC29245	10.5		4897	357
Ip259	DRSC03352	11.2	3.4	5157	5624
CG8641	DRSC11028	3.08	5.21	6013	6216
CG14075	DRSC10080	6.12	2.63	6751	6891

Next part (4 carried over from the part before).
gene	DRSC id	infection score, replicate 1	infection score, replicate 2	cell count, replicate 1	cell count, replicate 2
Acn	DRSC29245	10.5		4897	357
Ip259	DRSC03352	11.2	3.4	5157	5624
CG8641	DRSC11028	3.08	5.21	6013	6216
CG14075	DRSC10080	6.12	2.63	6751	6891
CG42307 + mus312	DRSC11008	5.22	4.57	6228	6066
CG42307 + mus312	DRSC27742	27.8	19.4	5743	3743
CG32713	DRSC22766	3.16	9.22	5704	5876
CG10602	DRSC02075	11.9	4.99	6380	6110
CG8260	DRSC20098	36.4	13.5	6026	5475
CG5191	DRSC15733	3.97	5.39	6545	6533
CG5191	DRSC15734	4.5	5.07	6461	6747
CG5191	DRSC21559	0.87	1.52	6005	6331
CG5191	DRSC27689	4.47	12	6448	5585
CG13282	DRSC02254	8.03	3.83	5913	6872
Pcp	DRSC03395	7.09	8.41	6429	2807
Spec2 (retired record)	DRSC12258	4.33	11.8	5816	5960
Spec2 (retired record)	DRSC22886	2.77	0.57	5524	6791
CG31189	DRSC16198	7.26	10.2	6595	6091
